Record: PubChem BioAssay AID504761 (Drosophila RNAi Screening Center, 2011)
Purpose: 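Genome-wide fly cell screen for genes dengue virus requires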 (primary screen). System: D.Mel-2 cells from Drosophila. Knock-down reagent: long dsRNA against Drosophila genes. Conditions: infection with dengue virus type 2; dose and infection time not stated. Measured: 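Cells stained for dengue envelope protein and imaged; percent of infected cells per well on duplicate plates, ranked by infection, with stained nuclei counted for cell number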. Scale: infection score: higher = more virus-infected cells; cell count: higher = more cells in the well. Active means: 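Very low infection ranking in both replicate wells (chance probability at most 0.065), then a retest showing infection dropped 1.5-fold or more at p below 0.05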. Meaning of the calls: active = confirmed: knock-down lowers infection; inactive = not picked or not confirmed.
The screen tested about 22,000 reagents; below is a random part of those that have a named target and a result. Over the whole deposit, 116 (0.52%) are marked active. 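Calls depend on retest data that are not deposited; infection was ranked per plate without normalising between plates; the unit of the infection score is not given.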 Raw values vary from plate to plate and are shown uncorrected. Entries without a mark were called inactive. No sequences are given here. The record does not give: the amount of reagent, the time to read-out.

gene knocked down	dsRNA	infection score, replicate 1	infection score, replicate 2	cell count, replicate 1	cell count, replicate 2
JMJD4	DRSC03025	8.07	14.9	6281	6090
JMJD4	DRSC25368	3.61	3.9	6738	6621
mib1	DRSC10550	1.38	2.87	6437	6478
CG14562	DRSC11723	11.3	12.3	6656	6648
CG32445	DRSC11678	2.17	4.98	6448	6425
Diap2	DRSC07444	4.4	29.4	932	4764
Diap2	DRSC26613	2.36	4.01	5667	5590
Dlip2	DRSC12346	8.92	5.35	6667	6652
Oatp58Dc	DRSC04363	3.7	16.5	6316	6045
Oatp58Dc	DRSC24688	5.44	1.55	5644	6465
CG14185	DRSC10184	2.69	3.39	6941	6315
l(3)73Ah	DRSC11359	5.58	3.56	5790	6297
CG10713	DRSC09786	0.51	2.83	6654	6046
CG10713	DRSC24532	1.1 (active)	1.49	6206	5909
ND-51L2	DRSC07080	30.3	11.8	4694	6355
CG9143	DRSC07338	12.8	14.1	4809	2458
Zwilch	DRSC15376	3.16	4.22	6290	6450
dUTPase	DRSC01998	27.2	9.17	6229	6346
dUTPase	DRSC29469	11.7	5.02	5609	1015
CG11816	DRSC19428	0.3	3.73	334	1071
CG11816	DRSC23612	3.58	1.63	6641	6331
Cox11	DRSC22692	9.5	6.71	5738	6574
noi	DRSC12383	13.6	10.1	1182	1637
noi	DRSC26152	13.9	22.6	1299	1776
Drep2	DRSC07528	10.9	7.55	5360	6263
Drep2	DRSC25612	4.16	2.92	5557	5648
teq	DRSC10298	5.6	4.28	5406	5797
teq	DRSC11301	1.21	2	5932	6102
teq	DRSC11302	2.12	2.08	5802	6290
RyR	DRSC07543	26.4	19	6111	5712
CG43066	DRSC06927	1.33	0.73	5858	6132
CG43066	DRSC26570	2.22	6.54	5804	5798
CG2765	DRSC04315	7.52	37.1	6743	5567
lectin-21Cb	DRSC00355	2.42	2.74	6316	6719
Crg-1	DRSC22882	1.26	0.44	6420	6524
Crg-1	DRSC29136	0.25		395	264
Dap160	DRSC03313	8.47	14.5	6201	4852
Dap160	DRSC27467	30.1	18	5193	7170
CG31268	DRSC13203	8.07	10.3	5787	5230
Nek2	DRSC18124	1.28	0.63	6425	6842
Nek2	DRSC26714	0.59	8.53	6927	5841
CG3045	DRSC04331	20.9	12.7	6014	6087
ana3	DRSC06289	26	17.6	5295	6023
ana3	DRSC28049	15	1.89	5634	6440
BORCS5	DRSC19427	0.95	6.13	6654	6660
BORCS5	DRSC26187	15.2	3.29	5065	6023
Ugt36E1	DRSC02599	12.6	4.03	6179	6257
mars	DRSC06656	13.8	20.1	3272	6469
CG30037	DRSC07305	9.02	14.3	6865	6311
wun	DRSC07719	4.63	5.71	5205	5727
CG32453	DRSC21673	2.89	5.15	6708	6966
CG6230	DRSC01989	10.1	1.14	6240	6424
eIF4EHP	DRSC13653	7.59	4.12	5613	5758
eIF4EHP	DRSC14265	4.51	4.98	6474	6328
RpS7	DRSC15394	2.78	3.19	1476	1128
RpS7	DRSC28468	10.9	19.5	1079	1786
Ir47a	DRSC06215	12	3.12	6805	6382
CG16753	DRSC08489	16	12.2	5512	2844
